Measured values from several laboratories, pooled; numbers as filed in NIAID ChemDB.

Common to all: tests in culture; organism: Candida albicans

A number after MIC or MFC names an inhibition level or a share of isolates. Blank or dashed fields: not listed here. ECn is the concentration giving n% inhibition of infection, replication or growth. Conditions beyond the fields shown may differ between rows.

smiles	method	strain	measure	value
CCCCCCCCCCCC[N+](C)(C)COCC	-	ATCC 10231	MBC	162 µM
NC[C@H]1O[C@H](O[C@H]2[C@H](O)[C@@H](O[C@H]3O[C@H](CO)[C@@H](O)[C@H](N)[C@H]3O)[C@H](N)C[C@@H]2N)[C@H](O)[C@@H](O)[C@@H]1O	MTT / broth dilution	-	MIC	>50 µg/mL
COc1ccc(/C=N\N(C)Cc2cccc3ccsc23)cc1	-	-	MIC	>64 µg/mL
CC(C)(C)OC(=O)N1CCC(Br)(C(=O)O)CC1	-	ATCC10259	MIC	100 µg/mL
CN1C(=O)[C@]2(CO)NC(=O)[C@@]1(Cc1ccccc1)SS[C@@]1(CO)NC(=O)[C@@](Cc3ccccc3)(SS2)N(C)C1=O	-	-	MIC	50 µg/mL
CCCCCCCC[N+](C)(C)COC(C)CCC	-	ATCC 10231	MIC	1700 µM
Oc1ccc(C=Nc2cc(Cl)ccc2O)c(O)c1	broth dilution	ATCC 10231	MIC	312 µg/mL
COc1cc(/C=N\N(C)Cc2cccc3ccccc23)cc(OC)c1OC	-	-	MIC	>64 µg/mL
COc1ccccc1N1CCN(CCc2nnn(C(C)C(O)(Cn3cncn3)c3ccc(F)cc3F)n2)CC1	-	-	MIC	8 µg/mL
O=c1c(OC2CCCC2)c(N2CCN(S(=O)(=O)NCc3ccccc3)CC2)cnn1-c1cccc(Cl)c1	broth dilution	CLY16997	MIC	8 µg/mL
CC1CC2=C(O1)c1ccccc1C(=O)C2=O	broth dilution	1	MIC	16 µg/mL
COCCOCCOCCOCCOCCOCCNC(=O)[C@H]1[C@@H]2C[C@@H](O[C@@H]3O[C@H](C)[C@@H](O)[C@H](N)[C@@H]3O)/C=C/C=C/C=C/C=C/C=C/C=C/C=C/[C@H](C)[C@@H](O)[C@H](C)[C@H](C)OC(=O)C[C@H](O)C[C@H](O)[C@@H](O)CC[C@H](O)C[C@H](O)C[C@](O)(C[C@@H]1O)O2	-	Isolate 92-889	MIC	3.03 µg/mL
O=C(O)C1=CCCCC1	-	ATCC10259	MIC	>1000 µg/mL
CS[C@@]1(Cc2ccccc2)NC(=O)[C@@](Cc2ccccc2)(SC)N(C)C1=O	-	-	MIC	50 µg/mL
O=C(Cc1ccc(Cl)cc1)Nc1ccc(Cc2nc3ccccc3s2)cc1	broth dilution	ATCC 10231	MIC100	25 µg/mL
CCCCCCCCCCCCSc1ccnc(C(N)=S)c1	-	ATCC 44859	MIC	>500 µM
Clc1ccc(OC(Cn2nnc3ccccc32)c2ccc(Cl)cc2Cl)cc1	broth dilution	ATCC90027	MIC	>256 µg/mL
C[C@H](N)C(=O)N[C@@H](C(=O)O)n1cc(F)c(=O)[nH]c1=O	-	B-310	MIC	>100 µg/mL
CCCCCCCCCCCC[N+](C)(C)CSCCCCCC	-	ATCC 10231	MBC	263 µM
CCCCC(=O)OC1CC(OC(C)C(C)C(O)C(C)C(O)C(C)C2OC(=O)/C=C/CC(O)CC(O)CC(O)CCC(C)C(O)C[C@@]3(O)O[C@H](CC(O)CC(OC(=O)CC(=O)O)CCCC(O)C4OC4C2C)C[C@H](O)[C@H]3O)OC(C)C1O	-	ATCC 90029	MIC	>100 µg/mL
CN1CCC[C@H]1CCCCCCCCCc1ccccc1	-	IP4872	MIC	25 µg/mL
O=C(CCc1ccccc1)Nc1ccc(Cc2nc3ccccc3s2)cc1	broth dilution	ATCC 10231	MIC100	25 µg/mL
CCCCCCCCCCCC[N+](C)(C)COC(C)CCCCCC	-	ATCC 10231	MIC	25.5 µM
O=[N+]([O-])c1ccc(N2CCN(CCc3nnnn3CC(O)(Cn3cncn3)c3ccc(F)cc3F)CC2)cc1	-	V-01-191A-261 (resistant)	MIC	8 µg/mL
C[C@H]1[C@H](O)[C@@H](C)/C=C/C=C/C=C/C=C/C=C/C=C/C=C/[C@H](O[C@@H]2O[C@H](C)[C@@H](O)[C@H](N)[C@@H]2O)C[C@@H]2O[C@](O)(C[C@@H](O)C[C@@H](O)CC[C@H](O)[C@@H](O)C[C@@H](O)CC(=O)O[C@H]1C)C[C@H](O)[C@H]2C(=O)O	-	63 isolates	MIC50	0.25 µg/mL
O=C(N/N=C/c1cc(Br)cc(Br)c1O)c1ccccc1F	MTT / broth dilution	-	MIC	>50 µg/mL
CCSc1ccnc(C(N)=S)c1	-	ATCC 44859	MIC	1000 µM
Oc1ccc(O)c(C=Nc2cc(Cl)ccc2O)c1	broth dilution	ATCC 10231	MIC	78 µg/mL
CCC(C)Oc1ccc(C(=O)Nc2ccc(-c3nc4ccccc4s3)cc2)cc1	broth dilution	ATCC 10231	MIC100	25 µg/mL
C[C@H]1[C@H](O)[C@@H](C)/C=C/C=C/C=C/C=C/C=C/C=C/C=C/[C@H](O[C@@H]2O[C@H](C)[C@@H](O)[C@H](N)[C@@H]2O)C[C@@H]2O[C@](O)(C[C@@H](O)C[C@@H](O)CC[C@H](O)[C@@H](O)C[C@@H](O)CC(=O)O[C@H]1C)C[C@H](O)[C@H]2C(=O)O	resazurin	-	EC50	0.08 µg/mL
N#CC(CC(=O)O)C(N)C(=O)O	-	ATCC 32354 (B311)	MIC	0.8 µg/mL
O=C(NCc1ccc(Cl)c(Cl)c1)c1ccccc1O	-	ATCC 44859	Geometric mean MIC	420.5 µM
CCCSc1ccnc(C(N)=S)c1	-	ATCC 44859	MIC	500 µM
C[C@H](n1nnc(CCN2CCN(c3ccccc3Cl)CC2)n1)[C@](O)(Cn1cncn1)c1ccc(F)cc1F	-	-	MIC	4 µg/mL
Cc1cccc(/C=N\N(C)Cc2cccc3ccsc23)c1	-	-	MIC	>64 µg/mL
CC(C)CSc1ccnc(C(N)=S)c1	-	ATCC 44859	MIC	>500 µM
COC1CC2CCC(C)C(O)(O2)C(=O)C(=O)N2CCCCC2C(=O)OC(C(C)CC2CCC(O)C(OC)C2)CC(=O)C(C)/C=C(\C)C(O)C(OC)C(=O)C(C)C[C@](C)(N(O)C(=O)NN2CCCCC2)/C=C/C=C/C=C/1C	-	WILD TYPE	MIC	0.78 µg/mL
Cc1ccc(C(C)C)c(O)c1	broth dilution	ATCC 24433	MIC	93000 µg/mL
O=[N+]([O-])c1ccc2[nH]c3c4ccccc4nnc3c2c1	-	-	MIC	1.6 µM
COc1cc(/C=N\N(C)Cc2cccc3ccccc23)ccc1O	-	-	MIC	>64 µg/mL
CCCCCCCCCCCC[N+](C)(C)COCCC(C)C	-	ATCC 10231	MBC	28.6 µM
CCCCCCCCCCCCC(OC)C(=O)O	-	ATCC 14053	MIC	>110 µM
O=c1[nH]cc(F)c(=O)[nH]1	-	3153A	MIC	1 µg/mL
Clc1ccc2[nH]c3c4ccccc4nnc3c2c1	-	-	MIC	>200 µM
CN(Cc1cccc2ccccc12)/N=C\c1ccc(F)cc1	-	-	MIC	>64 µg/mL
CCCCCCCCCOC[N+](C)(C)CCCCCCCC	-	ATCC 10231	MBC	286 µM
Cc1ccc(/C=N\N(C)Cc2cccc3ccsc23)cc1	-	-	MIC	>64 µg/mL
Oc1ccc(Cl)cc1C=Nc1cc(Cl)ccc1O	broth dilution	ATCC 10231	MIC	19.5 µg/mL
CCCCCSc1ccnc(C(N)=S)c1	-	ATCC 44859	MIC	500 µM
Clc1ccc(OC(Cn2cc(C3CCCCC3)nn2)c2ccc(Cl)cc2Cl)cc1	broth dilution	ATCC90027	MIC	>256 µg/mL
COc1c(C)c(C)c2[nH]c3ccc(Cc4c(C)c(OC)c(O)c5c4[nH]c4ccccc45)cc3c2c1O	resazurin	-	EC50	>50 µg/mL
O=C(NCc1ccc(F)cc1)c1ccccc1O	-	ATCC 44859	Geometric mean MIC	454.6 µM
COC1CC2CCC(C)C(O)(O2)C(O)C(O)N2CCCCC2C(=O)OC(C(C)CC2CCC(O)C(OC)C2)CC(=O)C(C)/C=C(\C)C(O)C(OC)C(=O)C(C)CC(C)/C=C/C=C/C=C/1C	-	RBP1/RBP1	MIC	>100 µg/mL
CC(C)(C)C1CC=C(C(=O)O)CC1	-	ATCC10259	MIC	1000 µg/mL
C=CC[C@@H]1/C=C(/C)C[C@H](C)C[C@H](OC)[C@H]2O[C@@](O)(C(=O)C(=O)N3CCCC[C@H]3C(=O)O[C@H](/C(C)=C/[C@@H]3CC[C@@H](O)[C@H](OC)C3)[C@H](C)[C@@H](O)CC1=O)[C@H](C)C[C@@H]2OC	broth dilution / turbidity	SC5314	MIC50	>16 µg/mL
CCC(C)Sc1ccnc(C(N)=S)c1	-	ATCC 44859	MIC	250 µM
CN(Cc1cccc2ccsc12)/N=C\c1ccc(F)cc1	-	-	MIC	>64 µg/mL
COc1ccc2[nH]c3c(Cc4ccc5[nH]c6c(C)c(C)c(OC)c(O)c6c5c4)c(C)c(OC)c(O)c3c2c1	resazurin	-	EC50	>50 µg/mL
O=C(O)/C1=C/CCCCCCCCCC1	-	ATCC10259	MIC	500 µg/mL
CCCCCCCCCCCCOC[N+](C)(C)CCCCCCCC	-	ATCC 10231	MBC	25.5 µM
CCCCOc1ccccc1N1CCN(CCc2nnn(CC(O)(Cn3cncn3)c3ccc(F)cc3F)n2)CC1	-	V-01-191A-261 (resistant)	MIC	2 µg/mL
CCCCCCCCCCCC[N+](C)(C)COCCC(C)CCCC(C)C	-	ATCC 10231	MIC	238 µM
COc1ccc(CC(=O)Nc2ccc(Cc3nc4ccccc4s3)cc2)cc1	broth dilution	ATCC 10231	MIC100	25 µg/mL
CCC(C)CC(C)CCCCCCCCC(=O)N[C@H]1C[C@@H](O)[C@H](NCCN)NC(=O)[C@@H]2[C@@H](O)CCN2C(=O)[C@H]([C@H](O)CCN)NC(=O)[C@H]([C@H](O)[C@@H](O)c2ccc(O)cc2)NC(=O)[C@@H]2C[C@@H](O)CN2C(=O)[C@H]([C@@H](C)O)NC1=O	broth dilution	C375	MIC	0.5 µg/mL
CCOc1ccc2nc3cc(N=C4NC(=O)/C(=C\c5ccc([N+](=O)[O-])o5)S4)ccc3c(N)c2c1	broth dilution	ATCC 60193	MIC	62.5 µg/mL
Clc1ccc2c(c1)nnc1c3ccccc3[nH]c21	-	-	MIC	9.4 µM
C=CCc1ccc(O)c(OC)c1	turbidity	3070	MIC90	495 µg/mL
COc1ccc2[nH]c3c(C)c(C)c(OC)c(O)c3c2c1	resazurin	-	EC50	>50 µg/mL
C[C@H](n1nnnc1CCN1CCN(c2ccc([N+](=O)[O-])cc2)CC1)[C@](O)(Cn1cncn1)c1ccc(F)cc1F	-	V-01-191A-261 (resistant)	MIC	2 µg/mL
Oc1ccc(Br)cc1C=Nc1cc(Cl)ccc1O	broth dilution	ATCC 10231	MIC	19.5 µg/mL
CCCCCCSc1ccnc(C(N)=S)c1	-	ATCC 44859	MIC	>500 µM

A second listing of 5 rows from above:

| smiles | method | strain | measure | value |
|---|---|---|---|---|
| CCOc1ccc2nc3cc(N=C4NC(=O)/C(=C\c5ccc([N+](=O)[O-])o5)S4)ccc3c(N)c2c1 | broth dilution | ATCC 60193 | MIC | 62.5 µg/mL |
| Oc1ccc(C=Nc2cc(Cl)ccc2O)c(O)c1 | broth dilution | ATCC 10231 | MIC | 312 µg/mL |
| CCCCCCCCCOC[N+](C)(C)CCCCCCCC | - | ATCC 10231 | MBC | 286 µM |
| Clc1ccc(OC(Cn2nnc3ccccc32)c2ccc(Cl)cc2Cl)cc1 | broth dilution | ATCC90027 | MIC | >256 µg/mL |
| CN(Cc1cccc2ccsc12)/N=C\c1ccc(F)cc1 | - | - | MIC | >64 µg/mL |